A mixed list of measured activities; the numbers were collected in NIAID ChemDB.

Shared fields: tests in culture; species: Mycobacterium tuberculosis

MIC bound comes from a single tested concentration. Rows are shuffled and stem from different studies. An empty or dashed field is not shown. Percent inhibition refers to the dose given; in toxicity tests it is the harm to the cells. ECn is the concentration giving n% inhibition of infection, replication or growth. MIC50, MIC90 and the like: level of inhibition, or share of isolates inhibited.

smiles	read-out	setting	dose	changes	strain or isolate	cells	read by	result
CCOC(=O)COc1ccc(-c2ccc(C#N)cc2)c(CN2CCN(c3cccc(C)n3)CC2)c1	MIC				H37Rv (ATCC 27294)		broth dilution	4 µg/mL
Cc1cc(C(=O)/C=C/c2ccc(F)cc2)ccc1O	inhibition		6.25 µg/mL		H37Rv			94%
CCCCOc1ccccc1NC(=O)OCC[NH+]1CCCC1	MIC				My 331/88			500 µM
Cc1cnc(N)c(C(=O)OCc2ccccc2)n1	inhibition		12.5 µg/mL		H37Rv		BACTEC	27%
Cc1cc(C)c2nc3n(c(=O)c2c1)-c1ccc(F)cc1C3=O	MIC				H37Rv			0.13 µg/mL
CO[C@H]1/C=C/O[C@@]2(C)Oc3c(C)c(O)c4c(O)c(c(/C=N/N5CCN(C6CCCC6)CC5)c(O)c4c3C2=O)NC(=O)/C(C)=C\C=C\[C@H](C)[C@H](O)[C@@H](C)[C@@H](O)[C@@H](C)[C@H](OC(C)=O)[C@@H]1C	MIC				1027			0.04 µg/mL
COC(=O)/C=C(/C=C1\C(C#N)=C(N)N(c2ccc(Cl)cc2)C1(C)/C(=C/C(=O)OC)C(=O)OC)C(=O)OC	inhibition		6.25 µg/mL		H37Rv		resazurin	-40%
NCC[C@H](O)C(=O)N[C@@H]1C[C@H](N)[C@@H](O[C@H]2O[C@H](CN)[C@@H](O)[C@H](O)[C@H]2O)[C@H](O)[C@H]1O[C@H]1O[C@H](CO)[C@@H](O)[C@H](N)[C@H]1O	MIC				MDR19		broth dilution / resazurin	1 µg/mL
Cc1c[n+](=O)c(C)cn1[O-]	inhibition		12.5 µg/mL		H37Rv		BACTEC	17%
C/C(=N\NC(=O)c1ccncc1)c1ccccc1F	MIC				Thiacetazone-resistant			>6.25 µg/mL
Cc1cc(C(=O)/C=C/c2ccco2)ccc1O	inhibition		6.25 µg/mL		H37Rv			73%
O=C(O)COc1ccc(-c2ccccc2)c(CN2CCN(c3ccccn3)CC2)c1	MIC				H37Rv (ATCC 27294)		broth dilution	32 µg/mL
CC=CCOc1cc(NC(=S)OC(C)C)ccc1Cl	MIC				H37Rv		BACTEC	12.5 µg/mL
CCCCCCCCCCOc1ccccc1NC(=O)OCC[NH+]1CCCC1	MIC				My 331/88			16 µM
C(=C\c1ccccc1)/CNc1ccccc1Cn1ccnc1	MIC				103471			>64 µg/mL
C/C(=N\NC(=O)c1ccncc1)c1ccccc1	EC90	inside macrophages			Erdman	Macrophages	colony count	0.074 µg/mL
Cc1cn(CCOCCOC(=O)N[C@@H](CCCN=C(N)N)C(=O)O)c(=O)[nH]c1=O	MIC bound				H37Rv		resazurin	>6.25 µg/mL
O=C(NNCc1ccccc1)c1ccncc1	MIC				H37Rv (ethambutol-resistant)			1 µg/mL
COc1ccc2cc1-c1cc(cc(Br)c1O)C[C@H]1c3cc4c(cc3CCN1C)Oc1c(OC)cc3c(c1O4)[C@H](C2)N(C)CC3	MIC				H37Rv-PZA-R ATCC 35828		resazurin	3.1 µg/mL
CO[C@H]1/C=C/O[C@@]2(C)Oc3c(C)c(O)c4c(O)c(c(/C=N/N5CCN(C)CC5)c(O)c4c3C2=O)NC(=O)/C(C)=C\C=C\[C@H](C)[C@H](O)[C@@H](C)[C@@H](O)[C@@H](C)[C@H](OC(C)=O)[C@@H]1C	MIC				TN987			>32 µg/mL
O=C(/C=C/c1ccc(Cl)cc1Cl)c1c(O)c2ccccc2oc1=O	MIC90			Isoniazid-resistant	INHR-MTB		agar	>6.25 µg/mL
CC(NNC(=O)c1ccncc1)c1ccc(Cl)c(Cl)c1	MBC				Rifampicin-resistant			12.5 µg/mL
CCOC(=O)c1cn(CC)c2c(cc([N+](=O)[O-])c3cccnc32)c1=O	MIC90			gyrA mutation D94G gyrB mutation D500N	H37Rv			>50 µM
COc1ccc(/C=C/C(=O)c2ccc(O)c(C)c2)cc1OC	inhibition		6.25 µg/mL		H37Rv			92%
CC1NOC(NS(=O)(=O)c2ccc(N=Nc3ccc[nH]c3=O)cc2)C1C	inhibition		12.5 µg/mL		H37Rv		BACTEC	2%
COc1cccc(NC(=O)OCC[NH+]2CCCC2)c1	MIC				My 331/88			>1000 µM
COc1ccc(NC(=O)CC/C(CC(=O)C(C)(C)C)=N\NC(=O)C(=O)NN)cc1	MIC bound				H37Rv		BACTEC	>12.5 µg/mL
CN1CCN(Cc2ccccc2NC/C=C/c2ccccc2)CC1	MIC				103471			>64 µg/mL
CCOC(=O)c1ccc2c(c1)C(=O)c1nc3c(I)cc(I)cc3c(=O)n1-2	MIC				H37Rv			>4 µg/mL
C/C(=N\NC(=O)c1ccncc1)c1ccc(F)cc1	MIC				H37Rv (isoniazid-resistant)			>32 µg/mL
O=C1c2cc(I)ccc2-n2c1nc1ncccc1c2=O	MIC				TN1195RFLF:N2 (MDR)			0.06 µg/mL
CC(NNC(=O)c1ccncc1)c1cccc(C(F)(F)F)c1	MIC				H37Rv (ethionamide-resistant)			>31.25 µg/mL
CC(=O)Oc1ccccc1C(=O)Nc1ncc([N+](=O)[O-])s1	MIC				Haarlem spoligotype 168		visual reading	28 µg/mL
Oc1ccccc1/C=N\N1C(=S)N(C23CC4CC(CC(C4)C2)C3)C(=Nc2ccccc2)C1=Nc1ccccc1	inhibition		12.5 µg/mL		H37Rv		BACTEC	46%
Cc1cccc(C(N)=Nc2nc(-c3ccccn3)cc3ccccc23)c1	MIC							0.5 µg/mL
Nc1ccc(C(=O)O)c(O)c1	MIC				Clinical isolate 11			>100 µg/mL
NC(=O)C1=C(C(N)=O)SC(C(N)=O)=C(C(N)=O)S1	inhibition		6.25 µg/mL		H37Rv		BACTEC	0%
CCCCCCCCCOc1ccc(NC(=O)OCC[NH+]2CCCC2)cc1	MIC				My 331/88			16 µM
C(=C\c1ccccc1)/CNc1ccc(Cn2ccnc2)cc1	MIC				6425			2 µg/mL
Cc1cc(NC(=O)NC(=O)c2ccccc2N(C)C)ccc1Oc1ncc(Br)cn1	MIC bound				H37Rv		BACTEC	≤12.5 µg/mL
O=c1oc2ccccc2c(O)c1C1=NNC(c2ccccc2-c2ccccn2)C1	MIC90				H37Rv		agar	5.15 µg/mL
O=C1c2cc(F)ccc2-n2c1nc1cnccc1c2=O	MIC				H37Rv			0.13 µg/mL
CO/N=C(\C)c1cccc(F)c1NS(=O)(=O)c1nc2c(F)cnc(OC)n2n1	MIC50			INH RIF resistant	M23		visual reading	1 µM
COc1ccc2cc1-c1cc(ccc1O)C[C@H]1c3cc4c(cc3CCN1C)Oc1c(OC)cc3c(c1O4)[C@@H](C2)N(C)CC3	MIC				H37Rv-ETA-R ATCC 35830		resazurin	3.1 µg/mL
Cc1ccc(-c2cc(CN3CCOCC3)c(C)n2-c2ccc(F)cc2)cc1	MIC				H37Rv wild-type			0.16 µM
COc1cc2c3c(cc4cc5c(cc4c3c1OC)OCO5)N(C=O)CC2	MIC				H37Rv		resazurin	>50 µg/mL
CC(C(=O)O)c1ccc(-n2nnc3c(=O)[nH][nH]c(=O)c32)cc1	MIC bound				H37Rv		BACTEC	>12.5 µg/mL
Cc1cc(O)c2c(c1)C(=O)c1c(oc3c1c(=O)oc1cccc(C)c13)C2=O	MIC				MTCS2			4.88 µg/mL
C[C@H]1Oc2nc([N+](=O)[O-])cn2C[C@@H]1OCc1ccc(OC(F)(F)F)cc1	MIC				H37Rv		absorbance	0.2 µM
COc1cc(OC)c2cc([N+](=O)[O-])c3ccc(=O)oc3c2c1	MIC				MMDO		resazurin	50 µg/mL
CCn1cc(C(=O)O)c(=O)c2ccc(C)nc21	MIC90			gyrA mutation G88C	H37Rv			>50 µM
O=C(O)COc1ccc(-c2cccc(Cl)c2)c(CN2CCN(c3ccccn3)CC2)c1	MIC				H37Rv (ATCC 27294)		broth dilution	32 µg/mL
O=C(/C=C/c1ccc(C(F)(F)F)cc1)c1c(O)c2ccccc2oc1=O	MIC90				H37Rv		agar	6.12 µg/mL
O=Cc1ccc2c(c1)C(=O)c1nc3ccncc3c(=O)n1-2	MIC				H37Rv			0.5 µg/mL
O=c1oc2ccccc2c(O)c1C1=NN(c2ccccc2)C(c2ccccc2-c2ccccn2)C1	MIC90			Isoniazid-resistant	INHR-MTB		agar	>6.25 µg/mL
NNC(=O)C(=O)N=Cc1ccc([N+](=O)[O-])o1	MIC				H37Rv			3.1 µg/mL
C(/C=C/c1ccccc1)=Nc1ccc(Cn2ccnc2)cc1	MIC				6431			32 µg/mL
CCCCCCCCc1ccc2c(c1)C(=O)c1nc3ccncc3c(=O)n1-2	MIC				TN1082RFLP:V (DRUG sensitive)			≤0.015 µg/mL
NNC(=O)c1ccncc1	MIC				Clinical isolate 1			>100 µg/mL
COc1ccc(-c2cc(CN3CCOCC3)c(C)n2-c2ccc(F)cc2)cc1	MIC90				H37Rv			>13.4 µM
O=c1oc2ccccc2c(O)c1C1=NNC(c2ccc(Cl)cc2Cl)C1	MIC90				H37Rv		agar	>6.25 µg/mL
Cc1cc(C2=NNC(c3ccc(N(C)C)cc3)C2)ccc1O	inhibition		6.25 µg/mL		H37Rv			92%
CN1c2ccccc2NC(CC(=O)O)C2CC=CN21	MIC bound				H37Rv		BACTEC	>12.5 µg/mL
Cc1c(CN2CCOCC2)cc(-c2ccc(C(C)C)cc2)n1-c1ccc(Cl)cc1	MIC90				H37Rv			24.74 µM
O=C1c2ccc(Cl)cc2-n2c1nc1ccccc1c2=O	MIC				H37Rv			0.13 µg/mL
CCCc1ccc(-c2cc(CN3CCOCC3)c(C)n2-c2ccc(Cl)cc2)cc1	MIC90				H37Rv			31.66 µM
CCCCCN(CCCCC)c1ccc2c(=O)n3c(nc2c1)C(=O)c1cc(Cl)ccc1-3	MIC				H37Rv			2 µg/mL
Cc1ccn2nc(S(=O)(=O)Nc3c(Br)ccc4cccnc34)nc2n1	MIC50			INH RIF resistant	M22		visual reading	0.5 µM
CC(NNC(=O)c1ccncc1)c1ccc(F)cc1	EC90	inside macrophages			Erdman	Macrophages	colony count	1.84 µg/mL
Cc1ccc(N2C(=O)CC3(CCCC3)C2=O)cc1Cl	MIC bound				H37Rv		BACTEC	>12.5 µg/mL
COC(=O)C(C/C=C/c1ccc2c(c1)C(=O)c1nc3cc(Cl)cc(Cl)c3c(=O)n1-2)NC(C)=O	MIC				H37Rv			>8 µg/mL
CCCCN1C(=O)C(=O)N(c2ccccc2C(F)(F)F)C1=O	MIC bound				H37Rv		BACTEC	>12.5 µg/mL
Cc1cc2oc(=O)c(C(=O)/C=C/c3ccc(O)cc3O)c(O)c2cc1C	MIC90				H37Rv		agar	>6.25 µg/mL
O=C(NNCc1ccccc1F)c1ccncc1	MIC				Erdman			0.78 µg/mL
CCOC(=O)C1=C(C)NC(C)=C(C(=O)OCC)C1c1c(-c2ccccc2)noc1C	MIC bound				H37Rv		resazurin	>6.25 µg/mL
CC(NNC(=O)c1ccncc1)c1ccc(Cl)cc1Cl	EC50	inside macrophages			Erdman	Macrophages	colony count	<1.38 µg/mL
COc1cc(Br)c2nsnc2c1	inhibition		12.5 µg/mL		H37Rv		BACTEC	-12%
CC(NC(=O)c1ccccc1C(F)(F)F)c1nnc(SCc2ccc(F)cc2)n1Cc1cccnc1	MIC	7 d			H37Rv (ATCC 27294)		broth dilution	>64 µg/mL
O=C1C2CCCCC2C(=O)N1C1COC2C1OCC2N1C(=O)C2CCCCC2C1=O	inhibition		12.5 µg/mL		H37Rv		BACTEC	8%
CCc1ccc(-c2cc(CN3CCOCC3)c(C)n2-c2ccc(F)cc2)cc1	MIC			V681I	H37Rv DR1			0.66 µM
Cc1cc(-n2c(/C=C/c3ccc(Cl)cc3)nc3cc(Cl)ccc3c2=O)on1	MIC bound				H37Rv		resazurin	>6.25 µg/mL
O=C(O)c1ccccc1O	inhibition		80 µM		7800			6%
CC1=CC(=O)[C@@H](O)[C@]2(C)[C@H]3C4(O)OC[C@]35[C@H]([C@@H](C)[C@H]4O)[C@@H](O)C(=O)O[C@@H]5C[C@@H]12	MIC				H37Rv		BACTEC	≥12.8 µg/mL
CO[C@H]1/C=C/O[C@@]2(C)Oc3c(C)c(O)c4c(O)c(c(/C=N/N5CCN(C)CC5)c(O)c4c3C2=O)NC(=O)/C(C)=C\C=C\[C@H](C)[C@H](O)[C@@H](C)[C@@H](O)[C@@H](C)[C@H](OC(C)=O)[C@@H]1C	MIC				Clinical isolate 7			0.5 µg/mL